For data set [1], the target named is T1, VncRc (VncR C-terminal DNA-binding domain) (Streptococcus pneumoniae D39 (type 2)) (UniProt A0A0H2ZPY6). The experiment in a line: EMSA. The conditions noted are these: 10% human serum, 10 mM Mg2+, EMSA: 10 mM Tris-HCl pH 7.9, 10 mM MgCl2, 50 mM NaCl, 100 ug/ml BSA, 10% serum, 5 min at 37 C, 200 ng DNA with equal amount of protein, recombinant protein, probe letters rebuilt from the primers and the genome. (In general: Mobility shift assays separate free from complexed probe on a gel.)

Data set [2] concerns the target T1, VncRc (VncR C-terminal DNA-binding domain) (Streptococcus pneumoniae D39 (type 2)). Kind of data set: pull-down (anti-His co-IP, PCR). The conditions noted are these: serum condition not stated; recombinant protein; probe letters rebuilt from the primers and the genome.

Construct, isoform or probe ends are uncertain for at least one entry.

As to “TACACATCTGCTTCTAAAATATTGTTAGAAAACGATTTGACTGTCCTGATCAATTTGTCATGTTCTTATTTCATTTTACTATATTTTTGGTTCGCGGGAAGTCTACTAAGATACTTAAAGATGCAGATAGTGAAAAAAGGTGTAGACATTACCGTAAAAAAGTGATATAATCGTAAGATGTTCAATGTATAGGTGTTAATCATGAGTAGACGTTTTAA (double strand) [cpsp type 6B (BG7322)]”, the binding result in data set [1] and in data set [2] was “binds” each time.
As for “TACACATCTGCTTCTAAAATATTGTTAGAAAACGATTTGACTGTCCTGATCAATTTGTCATGTTCTTATTTCATTTTACTATATTTTTGGTTCGCGGGAAGTCTACTAAGATACTTAAAGATGCAGATAGTGAAAAAAGGTGTAGACATTACCGTAAAAAAGTGATATAATCGTAAGATGTTCAATGTATAGGTGTTAATCATGAGTAGACGTTTTAA (double strand) [cpsp type 2 (D39)]”, the binding result was “binds” in data set [1] (serum alone also shifts, VncRc supershifts) and “binds” in data set [2].

(Values after publication PMC6781885.)
